The values below are quoted from earlier work in article PMC9452303, “Archaic chaperone–usher pili self-secrete into superelastic zigzag springs” (2022).

The term Kd denotes the equilibrium constant for the complex coming apart.

For the data set, the target named is Caf1A NTD (Yersinia pestis) (UniProt P26949). The following applies: cited from earlier work.

Take “Caf1M-Caf1 complex (from UniProt P26926)”: the equilibrium dissociation constant (Kd) was 2400 nM.
